Data as given in PubChem BioAssay AID624099 (ICCB-Longwood, 2012)
This is a random part of about 21,000 deposited reagents. Of all reagents, 497 (2.4%) got an active call. 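Higher z means weaker E2 silencing; only reporter increases were scored, and knock-downs that hurt cell survival may mask genuine repressor factors.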 The numbers tell different reagents against one gene apart.

- Aim: 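Human genes that papillomavirus E2 requires to repress the HPV18 LCR promoter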 (primary screen)
- Cell system: human C33A cervical carcinoma cells (HPV-negative) stably expressing BPV1 E2 and an HPV18 LCR luciferase reporter
- Reagents: siRNA pool against human genes, 40 nM
- Timing: 72 h
- Measurement: 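Per-well luciferase luminescence, z-scored on each plate against the plate mean and SD with control wells left out, then averaged across three replicate plates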
- Direction: mean z-score and z-score: higher = stronger reporter signal, weaker E2 silencing
- Hit rule: 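Mean z ≥ 2 together with z ≥ 2 in two or more of the three replicates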

| Target gene | reagent | mean z-score | z-score, replicate A | z-score, replicate B | z-score, replicate C | outcome |
| --- | --- | --- | --- | --- | --- | --- |
| POLR2J4 | 1 | -1.19 | -1.1 | -1.32 | -1.15 | inactive |
| POLR2J4 | 2 | -1.15 | -0.95 | -1.29 | -1.21 | inactive |
| NEMP1 | 1 | -0.76 | -0.9 | -1.06 | -0.33 | inactive |
| POPDC1 | 1 | 0.05 | 0.01 | 0 | 0.14 | inactive |
| AZIN1 | 1 | 0.69 | 1.14 | 0.42 | 0.51 | inactive |
| LIFR | 1 | -0.09 | -0.22 | 0.13 | -0.18 | inactive |
| ZNF132 | 1 | 0.53 | 0.36 | 0.5 | 0.72 | inactive |
| LOC387823 (retired record) | 1 | 0.59 | 0.59 | 0.75 | 0.44 | inactive |
| ENTPD3 | 1 | -1.09 | -0.75 | -1.21 | -1.3 | inactive |
| SLC22A25 | 1 | 0.13 | 0.69 | -0.13 | -0.16 | inactive |

Continued; the last 3 above are carried over.
| Target gene | reagent | mean z-score | z-score, replicate A | z-score, replicate B | z-score, replicate C | outcome |
| --- | --- | --- | --- | --- | --- | --- |
| LOC387823 (retired record) | 1 | 0.59 | 0.59 | 0.75 | 0.44 | inactive |
| ENTPD3 | 1 | -1.09 | -0.75 | -1.21 | -1.3 | inactive |
| SLC22A25 | 1 | 0.13 | 0.69 | -0.13 | -0.16 | inactive |
| HIBADH | 1 | 1.5 | 1.78 | 1.41 | 1.31 | inactive |
| MLLT11 | 1 | 1.52 | 1.58 | 1.26 | 1.74 | inactive |
| PANK3 | 1 | -0.18 | -0.06 | -0.41 | -0.07 | inactive |
| EEF1A1P33 | 1 | -0.17 | 0.01 | -0.12 | -0.4 | inactive |
| CRNKL1 | 1 | 1.78 | – | 1.89 | 1.66 | inactive |
| ELOVL1 | 1 | -0.25 | -0.46 | -0.6 | 0.3 | inactive |
| SNCAIP | 1 | -1.46 | -1.76 | -1.41 | -1.23 | inactive |
| HOXD11 | 1 | -0.3 | -0.27 | -0.34 | -0.3 | inactive |
| PSG9 | 1 | 1.33 | 1.19 | 1.39 | 1.43 | inactive |
| FLJ12120 (retired record) | 1 | -0.73 | -0.72 | -0.55 | -0.92 | inactive |
| RPL11 | 1 | -3 | -3.23 | -2.99 | -2.78 | inactive |
| GTF2H1 | 1 | -0.26 | -0.02 | -0.43 | -0.35 | inactive |
| TBC1D7 | 1 | -0.39 | -0.19 | -0.48 | -0.49 | inactive |
